Compound potency records, mixed from different reports. Data source: NIAID ChemDB in PubChem.

Common to all: tests in culture; agent: Candida albicans; endpoint: MIC100

Neighbouring rows are from separate reports.

{"SMILES": "O=C1C=C(Nc2ccccc2)C(=O)c2ccccc21", "strain or isolate": "MTCC 3017", "method": "broth dilution", "result": "15.6 µg/mL"}
{"SMILES": "Cc1ccc(C(F)(F)C(F)(F)c2ccc(C(C)(C)N)cc2)cc1", "strain or isolate": "MY1055", "result": "8 µg/mL"}
{"SMILES": "CNC1=CC(=O)c2ccccc2C1=O", "strain or isolate": "MTCC 3017", "method": "broth dilution", "result": "15.6 µg/mL"}
{"SMILES": "C[C@@H]1[C@H](O)[C@@H](C)/C=C/C=C/CC/C=C/C=C/C=C/C=C/C(O[C@H]2O[C@H](C)[C@@H](O)[C@H](N)[C@@H]2O)CC2O[C@](O)(CC(O)C(O)CCC(O)CC(O)CC(O)CC(=O)O[C@H]1C)CC(O)C2C(=O)O", "strain or isolate": "ATCC 10231", "method": "broth dilution", "result": "6.25 µg/mL"}
{"SMILES": "C[C@H]1[C@H](O)[C@@H](C)/C=C/C=C/C=C/C=C/C=C/C=C/C=C/[C@H](O[C@@H]2O[C@H](C)[C@@H](O)[C@H](N)[C@@H]2O)C[C@@H]2O[C@](O)(C[C@@H](O)C[C@@H](O)CC[C@H](O)[C@@H](O)C[C@@H](O)CC(=O)O[C@H]1C)C[C@H](O)[C@H]2C(=O)O", "strain or isolate": "ATCC 10231", "method": "broth dilution", "result": "0.78 µg/mL"}
{"SMILES": "COc1ccc(NC2=CC(=O)c3ccccc3C2=O)cc1", "strain or isolate": "MTCC 3017", "method": "broth dilution", "result": "31.2 µg/mL"}
{"SMILES": "CN(C)C1=NC(=O)/C(=C/c2ccc([N+](=O)[O-])cc2)S1", "strain or isolate": "ATCC 10231", "method": "broth dilution", "result": ">250 µg/mL"}
{"SMILES": "C[C@H](Cc1ccc(O)c(O)c1)[C@@H](C)Cc1ccc(O)c(O)c1", "strain or isolate": "CCC 126-2000", "method": "broth dilution", "result": "250 µg/mL"}
{"SMILES": "C[C@@H]1[C@H](O)[C@@H](C)/C=C/C=C/C=C/C=C/C=C/C=C/C=C/[C@H](O[C@@H]2O[C@H](C)[C@@H](O)[C@H](N)[C@@H]2O)C[C@@H]2O[C@](O)(C[C@@H](O)C[C@@H](O)[C@H](O)CC[C@@H](O)C[C@@H](O)CC(=O)O[C@H]1C)C[C@H](O)[C@H]2C(=O)O", "strain or isolate": "ATCC 40227", "method": "broth dilution", "result": ">1024 µg/mL"}
{"SMILES": "CN(C/C=C/C#CC(C)(C)C)Cc1cccc2ccccc12", "strain or isolate": "ATCC 10231", "method": "broth dilution", "result": ">100 µg/mL"}
{"SMILES": "C[C@@H]1[C@H](O)[C@@H](C)/C=C/C=C/CC/C=C/C=C/C=C/C=C/C(O[C@H]2O[C@H](C)[C@@H](O)[C@H](N)[C@@H]2O)CC2O[C@](O)(CC(O)C(O)CCC(O)CC(O)CC(O)CC(=O)O[C@H]1C)CC(O)C2C(=O)O", "strain or isolate": "ICB 12", "method": "broth dilution", "result": "64 µg/mL"}
{"SMILES": "CCNC1=CC(=O)c2ccccc2C1=O", "strain or isolate": "MTCC 3017", "method": "broth dilution", "result": "31.2 µg/mL"}
{"SMILES": "Clc1ccccc1C(c1ccccc1)(c1ccccc1)n1ccnc1", "method": "agar diffusion / agar", "result": "7.8 µg/mL"}
{"SMILES": "O=C1C=C(NCc2ccccc2)C(=O)c2ccccc21", "strain or isolate": "MTCC 3017", "method": "broth dilution", "result": "250 µg/mL"}
{"SMILES": "COc1cc(/C=C2\\SC(N(C)C)=NC2=O)cc(OC)c1OC", "strain or isolate": "ATCC 10231", "method": "broth dilution", "result": ">250 µg/mL"}

The last 2 rows once more:

O=C1C=C(NCc2ccccc2)C(=O)c2ccccc21 ; strain or isolate: MTCC 3017 ; method: broth dilution ; result: 250 µg/mL
COc1cc(/C=C2\SC(N(C)C)=NC2=O)cc(OC)c1OC ; strain or isolate: ATCC 10231 ; method: broth dilution ; result: >250 µg/mL

MIC50, MIC90 and the like: level of inhibition, or share of isolates inhibited.